A mixed list of measured activities; the numbers were collected in NIAID ChemDB.

All rows: target-level tests

a–b is a range or a potency band. ICn is the concentration giving n% inhibition. An empty or dashed field is not shown. Rows are shuffled and stem from different studies.

| structure | endpoint | protein | strain or isolate | agent | method | result |
|---|---|---|---|---|---|---|
| O=C(NCc1ccc(Cl)c(Cl)c1)c1nc2ccccc2c(=O)n1O | IC50 | NS5B | 1b | Hepatitis C virus | fluorescence | 28.1 µM |
| CNC(=O)c1ccc(C)nc1Nc1ccc2cn[nH]c2c1 | IC50 | DNA polymerase | - | Hepatitis B virus | - | 0.1 µg/mL |
| CC(=O)N[C@@H](CC(=O)O)C(=O)N[C@H](CC(C(=O)O)C(=O)O)C(=O)N[C@H](C(=O)N[C@@H](CCC(=O)O)C(=O)N[C@@H](CC1CCCCC1)C(=O)N[C@@H](CS)C(=O)C(=O)O)C(C)(C)C | Ki | NS3/NS4A serine protease | - | Hepatitis C virus | - | 0.02 µM |
| Cc1ccc(C(=O)Nc2cccnc2)c(Nc2ccc3[nH]ncc3c2)n1 | IC50 | DNA polymerase | - | Hepatitis B virus | - | 0.01 µg/mL |
| O=C(O)c1cc2nc(-c3ccc(Cl)cc3Cl)cc(-c3ccc(-c4ccccc4)cc3)n2n1 | IC50 | RNA-dependent RNA polymerase | - | Hepatitis C virus | - | 1–10 µM |
| CC(=O)N[C@@H](CC(=O)O)C(=O)N[C@@H](C(=O)N[C@H](C(=O)N[C@@H](CCC(=O)O)C(=O)N[C@@H](CC1CCCCC1)C(=O)N[C@@H](CS)C(=O)C(=O)O)C(c1ccccc1)c1ccccc1)C(C)C | Ki | NS3/NS4A serine protease | - | Hepatitis C virus | - | 22 µM |
| Cc1ccc(C(=O)N2CCOCC2)c(Nc2ccc3cn[nH]c3c2)n1 | IC50 | DNA polymerase | - | Hepatitis B virus | - | <1 µg/mL |
| C=C[C@H]1CC1(NC(=O)[C@@H]1C[C@@H](Oc2cc(-c3ccccc3)nc3cc(OC)ccc23)CN1C(=O)[C@@H](NC(=O)OC(C)(C)C)C(C)C)C(=O)O | IC50 | NS3/NS4A protease | BMS | Hepatitis C virus | - | <0.05 µM |
| O=C(O)c1cc(O)c(O)c(O)c1 | IC50 | Nonstructural protein 3 protease | - | Hepatitis C virus | fluorescence | 382.4 µM |
| O=C(O)CCC(=O)ON[C@H](CC(C(=O)O)C(=O)O)C(=O)N[C@H](C(=O)N[C@@H](CCC(=O)O)C(=O)N[C@@H](CC1CCCCC1)C(=O)N[C@@H](CS)C(=O)C(=O)O)C(c1ccccc1)c1ccccc1 | Ki | NS3/NS4A serine protease | - | Hepatitis C virus | - | 0.02 µM |
| CNC(=O)c1c(-c2ccc(F)cc2)oc2cc(N(C)S(C)(=O)=O)c(OCC(=O)c3ccc(F)cc3)cc12 | IC50 | Nonstructural protein 5B | - | Hepatitis C virus | - | ≤0.5 µM |
| CC(=O)N[C@@H](CC(=O)O)C(=O)N[C@H](CC(C(=O)O)C(=O)O)C(=O)N[C@@H](Cc1c[nH]c2cccc(C(=O)O)c12)C(=O)N[C@@H](CCC(=O)O)C(=O)N[C@@H](CC1CCCCC1)C(=O)N[C@@H](CS)C(=O)C(=O)O | Ki | NS3/NS4A serine protease | - | Hepatitis C virus | - | 0.00002 µM |
| Cc1ccc(C(=O)NCc2cccnc2)c(Nc2ccc3cn[nH]c3c2)n1 | IC50 | DNA polymerase | - | Hepatitis B virus | - | ~0.1 µg/mL |
| O=C(NCc1ccc([N+](=O)[O-])cc1)c1nc2ccccc2c(=O)n1O | IC50 | NS5B | 1b | Hepatitis C virus | fluorescence | >50 µM |
| CSCC[C@H](NC(=O)[C@H](CCC(=O)O)NC(=O)[C@H](CC(=O)O)NC(C)=O)C(=O)N[C@@H](CCC(=O)O)C(=O)N[C@@H](Cc1ccc2ccccc2c1)C(=O)N[C@@H](CS)C(=O)O | Ki | NS3/NS4A serine protease | - | Hepatitis C virus | - | 0.4 µM |
| COc1ccc(-c2nc3ccc(NCc4ccc(Cl)c(C(F)(F)F)c4)cc3n(CCNC(C)=O)c2=O)cc1 | IC50 | Nonstructural protein 3 | - | Hepatitis C virus | fluorescence | >100 µM |
| O=C(O)CC(C(=O)O)C1c2c(cc(O)c(O)c2O)C(=O)CC1C(=O)O[C@H]1[C@H](O)[C@@H](O)[C@H](OC(=O)c2cc(O)c(O)c(O)c2)O[C@@H]1CO | IC50 | Nonstructural protein 3 protease | - | Hepatitis C virus | fluorescence | 67.2 µM |
| O=C(O)c1cnn2c(C3CCCCC3)c(-c3cncnc3)cnc12 | IC50 | RNA-dependent RNA polymerase | - | Hepatitis C virus | - | >10 µM |
| Cc1ccc(C(=O)NCCc2ccccn2)c(Nc2ccc3[nH]ncc3c2)n1 | IC50 | DNA polymerase | - | Hepatitis B virus | - | <0.1 µg/mL |
| COc1ccc2c(O[C@@H]3C[C@@H](C(=O)O)N(C(=O)OC(C)(C)C)C3)cc(-c3ccccc3)nc2c1 | IC50 | NS3/NS4A protease | BMS | Hepatitis C virus | - | <0.05 µM |
| CNC(=O)c1c(-c2ccc(F)cc2)oc2cc(N(C)S(C)(=O)=O)c(OCc3cc(C)on3)cc12 | IC50 | Nonstructural protein 5B | - | Hepatitis C virus | - | ≤0.5 µM |
| OCc1nnc(-c2ccc(N3CC(Oc4ccccc4C(F)(F)F)C3)nn2)o1 | IC50 | Nonstructural protein 3 | - | Hepatitis C virus | fluorescence | >100 µM |
| Cc1ccc(C(=O)NC(C)C)c(Nc2ccc3cn[nH]c3c2)n1 | IC50 | DNA polymerase | - | Hepatitis B virus | - | <0.01 µg/mL |
| Cc1cc2c(cc1F)c(C#N)c(-c1ccc(S(=O)(=O)N[C@@H](C)C(F)(F)F)cn1)n2-c1ncccn1 | IC50 | Nonstructural protein 4B | 1b | Hepatitis C virus | PCR | >1 µM |
| CC(Nc1cc(-c2ccc(Cl)cc2)nc2cc(C(=O)O)nn12)c1ccccc1 | IC50 | RNA-dependent RNA polymerase | - | Hepatitis C virus | - | >10 µM |
| C=CCN1c2ccccc2[C@]23CC(=O)N(Cc4ccccc4)C2=NC(C(=O)OC)=C(C(=O)OC)C13 | IC50 | Core106 dimerization | - | Hepatitis C virus | AlphaScreen | 2.8 µM |
| COc1cccc(Oc2cccc(-c3cnc4c(-c5nn[nH]n5)cnn4c3C3CCCCC3)c2)c1 | IC50 | RNA-dependent RNA polymerase | - | Hepatitis C virus | - | 1–10 µM |
| CNC(=O)c1c(-c2ccc(F)cc2)oc2cc(N(CCO)S(C)(=O)=O)c(OC)cc12 | IC50 | Nonstructural protein 5B | - | Hepatitis C virus | - | ≤0.5 µM |
| C=CC1C[C@@]1(NC(=O)[C@@H]1C[C@@H](Oc2cc(-c3ccccc3)nc3cc(OC)ccc23)CN1C(=O)[C@@H](NC(=O)Oc1ccc(C(F)(F)F)cc1)C(C)(C)C)C(=O)NS(=O)(=O)C1(Cc2ccccc2)CC1 | IC50 | NS3/NS4A protease | BMS | Hepatitis C virus | - | 0.05–0.5 µM |
| O=C(NCc1cccc(Cl)c1)c1nc2ccccc2c(=O)n1O | IC50 | NS5B | 1b | Hepatitis C virus | fluorescence | 25.6 µM |
| Cc1ccc(C(=O)NCCCn2ccnc2)c(Nc2ccc3cn[nH]c3c2)n1 | IC50 | DNA polymerase | - | Hepatitis B virus | - | ~0.01 µg/mL |
| COC(=O)C1=C(C(=O)OC)C2N(CCCCCNC(=O)CCCCCNC(=O)CCCC3SCC4NC(=O)NC43)c3ccccc3[C@@]23CC(=O)N(Cc2ccccc2)C3=N1 | IC50 | Core106 dimerization | - | Hepatitis C virus | AlphaScreen | 3.7 µM |
| CNC(=O)c1c(-c2ccc(F)cc2)oc2cc(N3CCOCC3)c(OCc3cccc4c3C(=O)OC(C)(C)O4)cc12 | IC50 | Nonstructural protein 5B | - | Hepatitis C virus | - | ≤0.5 µM |
| C=C[C@H]1C[C@@]1(NC(=O)[C@@H]1C[C@@H](Oc2cc(-c3ccccc3)nc3cc(OC)ccc23)CN1C(=O)[C@@H](NC(=O)OC1CCCC1)C(C)(C)C)C(=O)NS(=O)(=O)C1(C)CC1 | IC50 | NS3/NS4A protease | BMS | Hepatitis C virus | - | <0.05 µM |
| O=C(O)C[C@H](C(=O)O)[C@H]1c2c(cc(O)c(O)c2O)C(=O)O[C@@H]1C(=O)O | IC50 | Nonstructural protein 3 protease | - | Hepatitis C virus | fluorescence | 182.6 µM |
| O=C(NCc1ccccc1)c1nc2ccccc2c(=O)n1O | IC50 | NS5B | 1b | Hepatitis C virus | fluorescence | 28.2 µM |
| Cc1cnc2c(-c3nn[nH]n3)cnn2c1C1CCCCC1 | IC50 | RNA-dependent RNA polymerase | - | Hepatitis C virus | - | >10 µM |
| Nc1ccc(CNC(=O)c2nc3ccccc3c(=O)n2O)cc1 | IC50 | NS5B | 1b | Hepatitis C virus | fluorescence | 29.9 µM |
| CO[C@@H]1[C@H](O)[C@@H](COP(=O)(O)OP(=O)(O)OP(=O)(O)O)O[C@H]1n1ccc(N)nc1=O | IC50 | Replicase complex | - | Hepatitis C virus | - | 3.5 µM |
| CNC(=O)c1c(-c2ccccc2)oc2ccc(OC)c(C)c12 | IC50 | Nonstructural protein 5B | - | Hepatitis C virus | - | >30 µM |
| OCc1ccn2cc(-c3cn(Cc4cc(Cl)c(Cl)c(Cl)c4)nn3)nc2c1 | IC50 | Nonstructural protein 3 | - | Hepatitis C virus | fluorescence | >100 µM |
| O=C(O)CC(C(=O)O)C1c2c(cc(O)c(O)c2O)C(=O)CC1C(=O)CC[C@H]1O[C@@H](OC(=O)c2cc(O)c(O)c(O)c2)[C@H](O)[C@@H](O)[C@@H]1O | IC50 | Nonstructural protein 3 protease | - | Hepatitis C virus | fluorescence | 59.7 µM |

The first 2 rows once more:

structure | endpoint | protein | strain or isolate | agent | method | result
O=C(NCc1ccc(Cl)c(Cl)c1)c1nc2ccccc2c(=O)n1O | IC50 | NS5B | 1b | Hepatitis C virus | fluorescence | 28.1 µM
CNC(=O)c1ccc(C)nc1Nc1ccc2cn[nH]c2c1 | IC50 | DNA polymerase | - | Hepatitis B virus | - | 0.1 µg/mL